Compound potency records, mixed from different reports. Data source: NIAID ChemDB in PubChem.

All rows: growth or infection tests

Fold resistance has wild type as its base.

compound,cells,method,measure,strain or isolate,changes,organism,value
O=C(c1ccc(Br)c(Cl)c1)N1CCn2c(c3n(c2=O)C[C@H](CO)CN(Cc2ccccc2)C3=O)C1,HepG2.117,PCR,EC50,,,Hepatitis B virus,0.1–0.5 µM
Cn1cnnc1-c1ccc(-n2c(=O)c3c(n4ncc(Cc5ccccc5)c24)CN(C(=O)c2ccc(Br)c(C(F)(F)F)c2)CC3)cc1,HepG2.117,luminescence,EC50,,,Hepatitis B virus,≤0.05 µM
COc1ccc(CNC(=O)c2c3n(c(=O)n2-c2cccc(OC)c2)CCN(C(=O)c2ccc(Br)c(Cl)c2)C3)cc1,HepG2.117,PCR,EC50,,,Hepatitis B virus,0.5–5 µM
CC1CCC(C(=O)N(c2cc(C#CC(C)(C)C)sc2C(=O)O)C2CCC(O)CC2)CC1,Huh7,luciferase,fold resistance,H77 (GT1a),R422K,Hepatitis C virus,97.8
CC(C)C(=O)N1c2cccc(O)c2NC2=C(C(=O)CC(C)(C)C2)[C@H]1c1ccc(OCc2ccccc2)cc1F,,luciferase / reporter gene / replicon,EC50,1b,,Hepatitis C virus,1.95 µM
CC(C)Oc1ccc(-n2c(C(=O)N[C@H](C)c3ccccc3)c3n(c2=O)CCN(C(=O)c2ccc(Cl)c(Cl)c2)C3)cc1,HepG2.117,PCR,EC50,,,Hepatitis B virus,0.1–0.5 µM
C[C@@H]1Cc2c(n3ncc(CC4CCC4)c3n(-c3ccc(-c4n[nH]nc4N)cc3)c2=O)CN1C(=O)c1ccc(Br)c(C(F)(F)F)c1,HepG2.117,luminescence,EC50,,,Hepatitis B virus,≤0.05 µM
CC1(C)CC(=O)C2=C(C1)Nc1c(O)cccc1N(C(=O)c1ccco1)C2c1ccc(Cl)cc1Cl,,luciferase / reporter gene / replicon,EC50,1b,,Hepatitis C virus,10.07 µM
C[C@@H](NC(=O)c1c2n(c(=O)n1-c1ccc(OCC(F)(F)F)cc1)CCN(C(=O)c1ccc(Br)c(Cl)c1)C2)c1ccccc1,HepG2.117,PCR,EC50,,,Hepatitis B virus,0.1–0.5 µM
Cc1nc(-c2ccc(-n3c(=O)c4c(n5ncc(Cc6ccccc6)c35)CN(C(=O)c3ccc(Br)c(C(F)(F)F)c3)[C@H](C)C4)cc2)n[nH]1,HepG2.117,luminescence,EC50,,,Hepatitis B virus,≤0.05 µM
COc1ccc(-n2c(C(=O)NCc3ccccc3OC)c3n(c2=O)CCN(C(=O)c2ccc(Br)c(Cl)c2)C3)cc1,HepG2.117,PCR,EC50,,,Hepatitis B virus,0.1–0.5 µM
CC1(C)CC(=O)C2=C(C1)Nc1c(O)cccc1N[C@H]2c1ccc(OCc2ccccc2)cc1F,,luciferase / reporter gene / replicon,EC50,1b,,Hepatitis C virus,6.76 µM
N#Cc1cc(C(=O)N2CCn3c(c(C(=O)NCc4ccccc4-c4ncco4)n(-c4ccc(OC5CC5)cc4)c3=O)C2)ccc1Br,HepG2.117,PCR,EC50,,,Hepatitis B virus,0.1–0.5 µM
O=C(N[C@@H](C(=O)N1CCC[C@H]1c1ncc(-c2ccc(-c3ccc(-c4cnc([C@@H]5CCCN5C(=O)[C@H](NC(=O)C5CC5)c5ccccc5)s4)cc3)cc2)s1)c1ccccc1)C1CC1,Huh7.5,luciferase / reporter gene,fold resistance,genotype 1b,V153M+M202L+M265V,Hepatitis C virus,1
CC1(C)CC(=O)C2=C(C1)Nc1c(O)cccc1N(C(=O)c1ccccc1)C2c1ccc(Cl)cc1Cl,,luciferase / reporter gene / replicon,EC50,1b,,Hepatitis C virus,5.7 µM
CC(C)Cc1cnn2c3c(c(=O)n(-c4ccc5c(c4)nnn5CCO)c12)C[C@H](C)N(C(=O)c1ccc(Br)c(C(F)(F)F)c1)C3,HepG2.117,luminescence,EC50,,,Hepatitis B virus,0.05–0.5 µM
CCCC1C2=C(CC(C)(C)CC2=O)Nc2c(O)cccc2N1C(C)=O,,luciferase / reporter gene / replicon,EC50,1b,,Hepatitis C virus,2.98 µM
COc1ccc(-n2c(C(=O)NCc3ccccc3)c3n(c2=O)CCN(C(=O)c2cc4c(C)cccc4[nH]2)C3)cc1,HepG2.117,PCR,EC50,,,Hepatitis B virus,0.5–5 µM
CC1(C)CC(=O)C2=C(C1)Nc1c(O)cccc1NC2c1ccc(OCc2cc(F)cc(F)c2)cc1F,,luciferase / reporter gene / replicon,EC50,1b,,Hepatitis C virus,5.68 µM
COC(=O)N[C@H](C(=O)N1CCCC1c1ncc(-c2ccc(-c3ccc(-c4cnc([C@@H]5CC(C)CN5C(=O)[C@@H](NC(=O)CO)C(C)C)[nH]4)cc3)cc2)[nH]1)C(C)C,Lunet,luciferase,EC50,1a,Q30K,Hepatitis C virus,0.005 µM
O=C(NC1CC2(C1)CC(c1nc3cc(Cl)ccc3o1)C2)C1CN(Cc2ccccc2)S(=O)(=O)C1,Primary human hepatocytes,luminescence,EC50,,,Hepatitis A virus,4.6 µM
CC1(C)CC(=O)C2=C(C1)Nc1c(O)cccc1N(C(=O)CCC(=O)N1CCC(c3ccccc3)CC1)C2c1ccc(OCc2ccccc2)cc1Cl,,luciferase / reporter gene / replicon,EC50,1b,,Hepatitis C virus,4.31 µM
NC(=S)Nc1cccc(OCCCCCOc2ccc(N3CCCCC3)cc2)c1,Ava5-EG(delta4AB)SEAP,reporter gene / fluorescence,EC50,,,Hepatitis C virus,0.001–1 µM
CNC(=O)c1ccc(-n2c(=O)c3c(n4ncc(CC(C)C)c24)CN(C(=O)c2ccc(Cl)c(C(F)(F)F)c2)[C@H](C)C3)cc1,HepG2.117,luminescence,EC50,,,Hepatitis B virus,≤0.05 µM
O=C(NCc1cccc2[nH]cnc12)c1c2n(c(=O)n1-c1ccc(OC3CC3)cc1)CCN(C(=O)c1ccc(Br)c(Cl)c1)C2,HepG2.117,PCR,EC50,,,Hepatitis B virus,0.1–0.5 µM
S=C(Nc1cccc(OCc2ccccc2)c1)N1CCN(CCCc2ccccc2)C1=S,Ava5-EG(delta4AB)SEAP,reporter gene / fluorescence,EC50,,,Hepatitis C virus,0.001–1 µM
CC(C)C(=O)N1c2cccc(O)c2NC2=C(C(=O)CC(C)(C)C2)C1c1cccc2ccccc12,,luciferase / reporter gene / replicon,EC50,1b,,Hepatitis C virus,0.25 µM
NC(=S)Nc1cccc(OCCCCCOc2ccccn2)c1,Ava5-EG(delta4AB)SEAP,reporter gene / fluorescence,EC50,,,Hepatitis C virus,0.001–1 µM
Cc1n[nH]nc1-c1cc(-n2c(=O)c3c(n4ncc(Cc5ccccc5)c24)CN(C(=O)c2ccc(Br)c(C(F)(F)F)c2)[C@H](C)C3)nn1C,HepG2.117,luminescence,EC50,,,Hepatitis B virus,≤0.05 µM

2 of the rows above, restated:

Cc1n[nH]nc1-c1cc(-n2c(=O)c3c(n4ncc(Cc5ccccc5)c24)CN(C(=O)c2ccc(Br)c(C(F)(F)F)c2)[C@H](C)C3)nn1C ; cells: HepG2.117 ; method: luminescence ; measure: EC50 ; organism: Hepatitis B virus ; value: ≤0.05 µM
O=C(N[C@@H](C(=O)N1CCC[C@H]1c1ncc(-c2ccc(-c3ccc(-c4cnc([C@@H]5CCCN5C(=O)[C@H](NC(=O)C5CC5)c5ccccc5)s4)cc3)cc2)s1)c1ccccc1)C1CC1 ; cells: Huh7.5 ; method: luciferase / reporter gene ; measure: fold resistance ; strain or isolate: genotype 1b ; changes: V153M+M202L+M265V ; organism: Hepatitis C virus ; value: 1

Neighbouring rows are from separate reports. a–b is a range or a potency band. An empty or dashed field is not shown. ECn is the concentration giving n% inhibition of infection, replication or growth.